Data taken from article PMC12091907 (Gut Microbes, 2025).

Biological target: Toxin B (TcdB) from Clostridioides difficile, native full-length (Clostridioides difficile)
Assay: ELISA
Conditions: both partners purified

B1: human CD44 extracellular domain (CD44-ECD, amino acids 21-220), labeled with Fc (Fc fusion)
chain: QIDLNITCRFAGVFHVEKNGRYSISRTEAADLCKAFNSTLPTMAQMEKALSIGFETCRYGFIEGHVVIPRIHPNSICAANNTGVYILTSNTSQYDTYCFNASAPPEEDCTSVTDLPNAFDGPITITIVNRDGTRYVQKGEYRTNPEDIYPSNPTDDDVSSGSSSERSSTSGGYIFYTFSTVHPIPDEDSPWITDSTDRIP
With B1 the Kd was roughly 0.078 µM.
